# Experimental data from PubChem BioAssay AID1258 (University of Pittsburgh Molecular Library Screening Center, 2008).
# Only a part is listed here, and it is no random draw. The source made the active and inactive calls.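 How the source made its calls: active means inhibition above about 50% in both repeat tests (limit read from the data); inconclusive means one repeat under the set limit, the other over it; inactive means both repeats under the set limit.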
# Test: antileishmanial activity against promastigotes – 1 µM repeat of primary hits, confirmation (AID 1258)
# Details: L. major promastigote growth, resazurin fluorescence, 48 h; at 1 µM; active compounds read high
# Outline: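 system = Leishmania major promastigote parasites | quantity = 5,000 promastigotes per well | buffer or medium = medium 199 plus 10% heat-inactivated FBS | compound dosing = 1 µM single concentration | timing = 44 h drug plus 4 h dye, 28 °C | read-out = promastigote viability as inhibition relative to DMSO MAX/MIN controls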
row,SMILES,inhibition
1,O=C(OC1CN2CCC1CC2)C1c2ccccc2C=Cc2ccccc21 (stereo unspecified),inactive: 2.79%
